A mixed list of measured activities; the numbers were collected in NIAID ChemDB.

Common to all: tests in culture; organism: Mycobacterium tuberculosis

Conditions beyond the fields shown may differ between rows.

smiles	strain or isolate	changes	cell line	method	endpoint	tested at	result
C=C(NC(=O)c1csc(-c2nc3c(cc2O)-c2nc(cs2)C(=O)N[C@@H]([C@@H](C)O)C(=O)N/C(=C(\C)OC)c2nc(cs2)C(=O)N[C@@H]2c4nc(cs4)C(=O)N[C@@H](COC(=O)c4c5c6c(cccc6n4O)COC(=O)[C@@H](O[C@H]4C[C@](C)(O)[C@H](N(C)C)[C@H](C)O4)[C@H]2OC5)c2nc-3cs2)n1)C(N)=O	Clinical isolate 10525	Rifampicin- and isoniazid-resistant		broth dilution	MIC		≤2.5 µM
Cc1ccc(C(=O)CCC(=O)NC[C@H]2CN(c3ccc(-[n+]4[nH]nc5ccccc54)c(F)c3)C(=O)O2)c(C)c1	ATCC 27294				MIC		>16 µg/mL
Cc1ccc(NC(=S)N=Nc2c(O)n(C)c3ccc(C)cc23)cc1	H37Rv			broth dilution / resazurin	EC50		>100 µg/mL
CCCCN(CCCC)CCCCNc1ccc(C)c2sc3ccccc3c(=O)c12	H37Rv			BACTEC	MIC		1.6 µg/mL
CCn1cc(C(=O)O)c(=O)c2cc(F)c(N3CCN(CC(=O)c4ccccc4)CC3)cc21	H37Rv		VERO		EC50		<6.25 µg/mL
Cc1ccc2[nH]c(O)c(N=NC(=S)Nc3cccc(Br)c3)c2c1	H37Rv			broth dilution / resazurin	EC90		1.489 µg/mL
Cc1ccc(=O)[nH]n1					MIC		1 µg/mL
CN(C)c1ccc2c(N(C)C)cc(N(C)C)[n+](C)c2c1.[I-]	H37Rv			BACTEC	inhibition	12.5 µg/mL	46%
O=c1nc(SCc2ccncc2)c2[nH]cnc2[nH]1	H37Rv				MIC90		>6.25 µg/mL
CCCC\C=C(O)/C=C\C=C\CCCCCCCC(=O)NN					MIC		>200 µg/mL
NNC(=O)c1ccncc1	Clinical isolate 30034			broth dilution	MIC		≤1 µM
CCNC(=S)N=Nc1c(O)n(C)c2ccc(C)cc12	H37Rv			broth dilution / resazurin	EC50		>100 µg/mL
O=C(C[n+]1ccccc1)N/N=C(\Cc1nc2ccc([N+](=O)[O-])cc2[nH]c1=O)C(=O)Nc1cc(Cl)c(Cl)cc1Cl.[Cl-]	H37Rv			BACTEC	MIC bound		>12.5 µg/mL
COc1ccc(Sc2nc(Cl)nc3nc[nH]c23)cc1OC	H37Rv				inhibition	6.25 µg/mL	31%
NNC(=O)c1ccncc1	Clinical isolate 19 RP	INH RIF EMB resistant		resazurin	MIC		3.12 µg/mL
c1c[nH]c(Sc2ncnc3nc[nH]c23)n1	H37Rv				MIC90		>6.25 µg/mL
CC(=O)Nc1ccc(C(=O)CCl)c(Cl)c1	H37Rv			BACTEC	MIC bound		>12.5 µg/mL
CO/C(C)=C1/NC(=O)[C@H]([C@@H](C)O)NC(=O)c2csc(n2)-c2cc(O)c(-c3nc(C(=O)NCCCN4CCOCC4)cs3)nc2-c2csc(n2)[C@@H]2COC(=O)c3c4c5c(cccc5n3O)COC(=O)[C@@H](O[C@H]3C[C@](C)(O)[C@H](N(C)C)[C@H](C)O3)[C@@H](OC4)[C@H](NC(=O)c3csc1n3)c1nc(cs1)C(=O)N2	Clinical 12556			broth dilution	MIC		≤2.5 µM
CC(C)Cc1ccc(C(=O)CCC(=O)NC[C@H]2CN(c3ccc(-n4cncn4)c(F)c3)C(=O)O2)cc1	10 clinical isolates resistant				MIC		2–8 µg/mL
CN[C@@H]1[C@H](O[C@H]2[C@H](O[C@H]3[C@H](O)[C@@H](O)[C@H](N=C(N)N)[C@@H](O)[C@@H]3N=C(N)N)O[C@@H](C)[C@]2(O)C=O)O[C@@H](CO)[C@H](O)[C@H]1O	TN1521 (BU)				MIC		>2 µg/mL
NC(=O)c1cnccn1	Isolate 10003 monodrug-resistant				MIC		>300 µg/mL
CC(=O)NC[C@H]1CN(c2ccc(N3CCN(c4ccc([N+](=O)[O-])s4)CC3)c(F)c2)C(=O)O1	50				MIC		2 µg/mL
COc1cc(Br)c2c3c1OC1C(=O)CCC4C(C2)N(C)CCC314	H37Rv			BACTEC	inhibition	12.5 µg/mL	-6%
CN[C@@H]1[C@H](O[C@H]2[C@H](O[C@H]3[C@H](O)[C@@H](O)[C@H](N=C(N)N)[C@@H](O)[C@@H]3N=C(N)N)O[C@@H](C)[C@]2(O)C=O)O[C@@H](CO)[C@H](O)[C@H]1O	98596				MIC		≥2 µg/mL
CC1(C)[C@H](O)C[C@@H]2[C@@](C)(O)[C@H]3CC[C@H]4[C@H](O)[C@]3(C[C@H](O)[C@]21O)C[C@@]4(C)O	H37Rv			BACTEC	MIC bound		>12.5 µg/mL
CO[C@H]1/C=C/O[C@@]2(C)Oc3c(C)c(O)c4c(=O)c(c5oc6cc(N7CCN(C(C)C)CC7)cc(=O)c6nc5c4c3=C2O)NC(=O)/C(C)=C\C=C\[C@H](C)[C@H](O)[C@@H](C)[C@@H](O)[C@@H](C)[C@H](OC(C)=O)[C@@H]1C	2983 (rifampin-sensitive)				MIC		0.006 µg/mL
Cc1cc(=O)n(-c2ccc(S(=O)(=O)N=C(N)N)cc2)c(C)c1C(=O)O	H37Rv			BACTEC	inhibition	12.5 µg/mL	71%
O=c1nc(SCc2cccc(Br)c2)c2[nH]cnc2[nH]1	H37Rv				MIC90		>6.25 µg/mL
CSC1=NN(C(C)=O)C(c2ccncc2)S1	H37Rv			resazurin	MIC bound		>6.25 µg/mL
CC(C)N=c1cc2n(-c3ccc(Cl)cc3)c3ccccc3nc-2cc1Nc1ccc(Cl)cc1	MDR5			broth dilution / resazurin	MIC		0.25 µg/mL
O=C1c2cc(Cl)nnc2Oc2ccc3ccccc3c2N1CCCC1CCCCC1	H37Rv			BACTEC	EC50		>12.5 µg/mL
O=C(CCC(=O)c1cccs1)NC[C@H]1CN(c2ccc(N3CCCC3)c(F)c2)C(=O)O1	10 clinical isolates sensitive				MIC		1–2 µg/mL
CCn1cc(C(=O)O)c(=O)c2cc(F)c(N3CCN(CC(=O)c4ccc(F)cc4)CC3)cc21	H37Rv		VERO		inhibition	6.25 µg/mL	97%
COc1cccc2c(NN)cc(C)nc12	H37Rv		VERO		inhibition	12.5 µg/mL	54%
CCOC(=O)C(CO)c1nc2c([nH]c1=O)c(=O)n(C)c(=O)n2C	H37Rv			BACTEC	inhibition	12.5 µg/mL	17%
CO[C@H]1/C=C/O[C@@]2(C)Oc3c(C)c(O)c4c(O)c(c(/C=N/N5CCN(C/C=C/c6ccccc6)CC5)c(O)c4c3C2=O)NC(=O)/C(C)=C\C=C\[C@H](C)[C@H](O)[C@@H](C)[C@@H](O)[C@@H](C)[C@H](OC(C)=O)[C@@H]1C	H37RV (RIF-S)				MIC		0.03 µg/mL
O=C(CCC(=O)c1ccc(Cl)cc1)NC[C@H]1CN(c2ccc(N3CCCCC3)c(F)c2)C(=O)O1	10 clinical isolates sensitive				MIC		4–8 µg/mL
C/C=C1\C(=O)O[C@]23C=C[C@@H]4C(C(=O)OC)=CO[C@H](O[C@@H]12)[C@@H]43	H37Rv			MTT	MIC		2.4 µg/mL
C=C/C=N/NC(=O)c1ccccc1Cl					MIC		10 µg/mL
CCOc1ccn(CC(=O)c2ccc([N+](=O)[O-])o2)c(=O)n1	H37Rv			resazurin	inhibition	6.25 µg/mL	6%
O=c1[nH]ncc2ccccc12					MIC		10 µg/mL
Cc1ccc2c(c1)Oc1nnc(Cl)cc1C(=O)N2CC1CCCCC1	H37Rv			BACTEC	inhibition	12.5 µg/mL	49%
CCN=c1cc2oc3cc(NCC)c(C)cc3c(-c3ccccc3C(=O)OCC)c-2cc1C	H37Rv		VERO	BACTEC	MIC		1.6 µg/mL
Cc1cccc(CSc2ncccn2)c1	H37Rv				inhibition	6.25 µg/mL	0%
CCCCCN1C(=O)c2cc(Cl)nnc2Oc2ccc(C)cc21	H37Rv			BACTEC	inhibition	12.5 µg/mL	27%
COc1ccc(N=Nc2c(-c3c(OC)cc4occc4c3OC)[nH]c(=O)c(C#N)c2C)cc1	H37Rv			resazurin	inhibition	6.25 µg/mL	-12%
Cc1cccc(Sc2ncccn2)c1	H37Ra				MIC		>12.8 µg/mL
CCCCCCCN1C(=O)c2cc(Cl)nnc2Oc2ccc(Cl)cc21	H37Rv			BACTEC	EC50		>12.5 µg/mL
COc1ccc(Nc2nc(NS(=O)(=O)c3cc(C)c(Cl)cc3S)n[nH]2)cc1	H37Rv			BACTEC	inhibition	12.5 µg/mL	14%
Cc1ccccc1CSc1nc(=O)[nH]c2nc[nH]c12	H37Ra				MIC		>12.8 µg/mL
NNC(=O)c1ccncc1	42494				MIC		≥0.2 µg/mL
Nc1ccc(C(=O)O)cc1S(=O)(=O)c1cc(C(=O)O)ccc1N	H37Rv			BACTEC	inhibition	12.5 µg/mL	-9%
C/C=C/C(=O)NNC(=O)c1ccccc1					MIC		>200 µg/mL
CNC(=S)N=Nc1c(O)n(C)c2ccc(OC(F)(F)F)cc12	H37Rv			broth dilution / resazurin	EC50		>100 µg/mL
C[C@H]1COc2c(N3CCN(C)CC3)c(F)cc3c(=O)c(C(=O)O)cn1c23	Strain 474				MIC		0.125 µg/mL
CCn1cc(C(=O)O)c(=O)c2cc(F)c(N3CCN(CC(=O)c4ccc(Br)cc4)CC3)nc21	H37Rv				inhibition	6.25 µg/mL	1%
COc1ccc2c(NN)ccnc2c1	H37Rv		VERO		MIC		12.5 µg/mL
CO/C(C)=C1/NC(=O)[C@H]([C@@H](C)O)NC(=O)c2csc(n2)-c2cc(O)c(-c3nc(C(=O)NNC4CCN(C)CC4)cs3)nc2-c2csc(n2)[C@@H]2COC(=O)c3c4c5c(cccc5n3O)COC(=O)[C@@H](O[C@H]3C[C@](C)(O)[C@H](N(C)C)[C@H](C)O3)[C@@H](OC4)[C@H](NC(=O)c3csc1n3)c1nc(cs1)C(=O)N2	Clinical isolate 565	Multidrug-resistant		broth dilution	MIC		10–100 µM
COc1ccc(N=NC2C(=O)N(C(=O)c3ccncc3)N=C2C)cc1	H37Rv			BACTEC	MIC		≥12.8 µg/mL
CCSc1nc(Cl)nc2nc[nH]c12	H37Rv				MIC90		>6.25 µg/mL
CCOc1ccc2c(N/N=C/c3ccc(OC)c4ccccc34)ccnc2c1	H37Rv		VERO		MIC		6.25 µg/mL
COC(=O)C1=C(C(=O)OC)C2(C)OC1C1OC12	H37Rv			BACTEC	MIC bound		>12.5 µg/mL
CCn1cc(C(=O)O)c(=O)c2cc(F)c(N3CCN(CC(=O)c4ccc(C)cc4)CC3)cc21	H37Rv				MIC		>6.25 µg/mL
Cc1ccc(NC(=S)N=Nc2c(O)n(C)c3ccc(OC(F)(F)F)cc23)cc1	H37Rv			broth dilution / resazurin	EC50		66.4 µg/mL
CC1C(=O)OC2CC[N+]3(C(C)C)CC=C(COC(=O)C(C)(O)C1(C)O)C23.[Br-]	H37Rv			BACTEC	inhibition	12.5 µg/mL	-4%
NNC(=O)c1ccncc1	Strain 40				MIC		8 µg/mL
N#[N+]c1c([O-])ccc2nc3ccccc3nc12	H37Rv			BACTEC	MIC		0.78 µg/mL
CNC(=S)N=Nc1c(O)n(CN2CCOCC2)c2ccc(OC(F)(F)F)cc12	H37Rv			broth dilution / resazurin	EC50		1.566 µg/mL
CO[C@H]1/C=C/O[C@@]2(C)Oc3c(C)c(O)c4c(O)c(c(/C=N/N5CCN(C)CC5)c(O)c4c3C2=O)NC(=O)/C(C)=C\C=C\[C@H](C)[C@H](O)[C@@H](C)[C@@H](O)[C@@H](C)[C@H](OC(C)=O)[C@@H]1C	Clinical isolate 8600	Rifampicin- and isoniazid-resistant		broth dilution	MIC		≤10 µM
CCOc1ccc2c(NN)cc(C)nc2c1	H37Rv		VERO		inhibition	12.5 µg/mL	98%
CC1=NN(C(=O)c2ccc(Cl)cc2)C(=O)C1N=Nc1ccc(S(=O)(=O)Nc2ncccn2)cc1	H37Rv			BACTEC	inhibition	12.8 µg/mL	24%
CO[C@H]1/C=C/O[C@@]2(C)Oc3c(C)c(O)c4c(O)c(c5c(c4c3C2=O)NC2(CCN(CC(C)C)CC2)N=5)=NC(=O)/C(C)=C\C=C\[C@H](C)[C@H](O)[C@@H](C)[C@@H](O)[C@@H](C)[C@H](OC(C)=O)[C@@H]1C	2847 (rifampin-sensitive)				MIC		0.025 µg/mL
CCOc1ccc(/C=C2\C(=O)N=C(N)N=C2N)cc1OCC	H37Rv			BACTEC	inhibition	12.5 µg/mL	22%
NC(=O)c1cnccn1	1620				MIC		30 µg/mL

5 of the rows above, restated:

smiles | strain or isolate | changes | cell line | method | endpoint | tested at | result
CO[C@H]1/C=C/O[C@@]2(C)Oc3c(C)c(O)c4c(=O)c(c5oc6cc(N7CCN(C(C)C)CC7)cc(=O)c6nc5c4c3=C2O)NC(=O)/C(C)=C\C=C\[C@H](C)[C@H](O)[C@@H](C)[C@@H](O)[C@@H](C)[C@H](OC(C)=O)[C@@H]1C | 2983 (rifampin-sensitive) |  |  |  | MIC |  | 0.006 µg/mL
CC(C)Cc1ccc(C(=O)CCC(=O)NC[C@H]2CN(c3ccc(-n4cncn4)c(F)c3)C(=O)O2)cc1 | 10 clinical isolates resistant |  |  |  | MIC |  | 2–8 µg/mL
CCn1cc(C(=O)O)c(=O)c2cc(F)c(N3CCN(CC(=O)c4ccc(F)cc4)CC3)cc21 | H37Rv |  | VERO |  | inhibition | 6.25 µg/mL | 97%
NNC(=O)c1ccncc1 | Clinical isolate 19 RP | INH RIF EMB resistant |  | resazurin | MIC |  | 3.12 µg/mL
N#[N+]c1c([O-])ccc2nc3ccccc3nc12 | H37Rv |  |  | BACTEC | MIC |  | 0.78 µg/mL

ECn: concentration that inhibits the pathogen or its effect by n%. MIC bound comes from a single tested concentration. Two numbers with a dash give a range or band. Blank or dashed fields: not listed here. Inhibition is in % at the dose shown (toxicity tests: loss of growth or viability). MIC50, MIC90 and the like: level of inhibition, or share of isolates inhibited.